Results of unrelated studies side by side (data: NIAID ChemDB).

All rows: tests in culture; agent: Hepatitis C virus; endpoint: EC50

Conditions beyond the fields shown may differ between rows.

structure,strain,cells,value
O=C(O)/C=C/c1ccc(NC(=O)C2(NC(=O)c3ccc4c(c3)nc(-c3ccccn3)n4C3CCCCC3)CCCC2)cc1,-,Huh7,≤5 µM
CCOc1nc(N)nc2ncc(-c3ccc(O)cc3)nc12,-,Huh7,1–10 µM
C=CC1C[C@]1(NC(=O)[C@@H]1C[C@@H](Oc2cc(-c3ccccc3)nc3cc(OC)ccc23)CN1C(=O)[C@@H](NC(=O)OC(C)(C)C)C(C)(C)C)C(=O)NS(=O)(=O)c1ccc(C)cn1,BMS,Huh7,0.1–1 µM
CCCCCCCCCc1ccc(N(C(=O)C(N)C(C)C)c2nc(-c3cccnc3)c(F)s2)cc1C(F)(F)F,-,-,<1 µM
COC(=O)N[C@@H](C(=O)N(C)[C@@H](C)c1ncc(-c2ccc(-c3ncc(-c4cnc([C@H]5CCCN5C(=O)[C@@H](c5ccccc5)N5CCCCC5)[nH]4)cn3)cc2)[nH]1)c1ccccc1,1b,-,0.00001–0.000999 µM
CCCC(NC(=O)[C@@H]1C2CCCC2CN1C(=O)[C@@H](NC(=O)[C@@H](NC(=O)CCCCc1nn[nH]n1)C(C)C)C(C)C)C(=O)C(=O)N[C@@H](C)CC,-,-,>50 µM
C=CC1C[C@]1(NC(=O)[C@@H]1C[C@@H](Oc2cc(-c3ccccc3)nc3cc(OC)ccc23)CN1C(=O)[C@@H](NC(=O)OC(C)(C)C)C(C)(C)C)C(=O)NS(=O)(=O)c1cc(Br)c(Cl)s1,BMS,Huh7,1–10 µM
O=c1nc(NO)ccn1[C@@H]1O[C@H](CO)[C@@H](O)[C@H]1O,-,Huh7,0.7 µM
CCCCOc1nc(N)nc2ncc(-c3ccc(F)cc3)nc12,-,Huh7,1–10 µM
C=Cc1c2[nH]c(c1C)/C=C1\N=C(CC3=C4N=C(/C=c5\[nH]/c(c(C)c5CC)=C\2)C(C)=C4C(=O)[C@@H]3C(=O)OC)[C@@H](CCC(=O)O)[C@@H]1C,J6/JFH1-P47,Huh7.5,0.3 µg/mL
CCCCCCCCOc1ccc(N(C(=O)c2cccnc2)c2nc(-c3nc4ccccc4s3)cs2)cc1C(F)(F)F,-,-,<1 µM
COC(=O)NC[C@H](C(=O)N1CCCC1c1ncc(-c2ccc(-c3ccc(-c4cnc(C5CCCN5C(=O)[C@@H](NC(=O)OC)C(C)C)[nH]4)cc3)cc2)[nH]1)C(C)C,1b,Huh7,0.0000059 µM
Nc1nc(Cl)c(-c2cc3ccccc3o2)c(N[C@@H]2C[C@H](CO)[C@@H](O)[C@H]2O)n1,1b,Con-1,0.3 µM
COC(=O)N[C@@H](C(=O)N1CCC[C@@H]1c1ncc(-c2ccc(-c3ncc(-c4cnc([C@H]5CCCN5C(=O)Cc5cccnc5)[nH]4)cn3)cc2)[nH]1)c1ccccc1,1b,-,0.00001–0.000999 µM
C[C@@H](NC(=O)Cc1ccccc1)C(=O)Nc1ccc(C2SC(=Nc3cccc(F)c3)N(Cc3ccco3)C2=O)cc1,-,-,0.008 µM
O=C(O)c1ccc2c(C3CCCCC3)c(-c3ccccc3)n(CC(=O)N3CCOCC3)c2c1,-,-,0.38 µM
CCCNc1ncnc2ccc(-c3ccc(F)cc3)cc12,-,Huh7,1–10 µM
C=C[C@@H]1C[C@]1(NC(=O)C1C[C@@H](Oc2cc(-c3csc(NC4CCCC4)n3)nc3cc(OC)ccc23)CN1C(=O)[C@@H](NC(=O)OC1CCCC1)C1CCCCC1)C(=O)O,-,Huh7,<0.5 µM
CC(=O)Nc1ccc(-c2ccc3nc(N)nc(N4CCOCC4)c3c2)cc1,-,Huh7,1–10 µM
COC(=O)[C@@H](NC(=O)N[C@H](C(=O)N1CC[C@H]2[C@H]1C1(CCC1)C(=O)N2C(=O)C1CC1)C(C)C)C(C)C,-,-,0.38 µM
Cc1cccc(C(=O)N2c3cccc(O)c3NC3=C(C2c2ccc(Oc4ccccc4Br)cc2F)S(=O)(=O)CC(C)(C)C3)n1,1b,-,0.4993 µM
COC(=O)N[C@H](C(=O)N1CCC(c2ncc(-c3ccc(-c4ccc(-c5cnc(C6CCCN6C(=O)[C@@H](NC(=O)OC)C(C)C)[nH]5)cc4)cc3)[nH]2)C1)C(C)C,-,H77,0.000055 µM
CCC[C@H](NC(=O)[C@@H]1[C@H]2CCCC[C@H]2CN1C(=O)[C@@H](NC(=O)[C@@H](NC(=O)c1cnccn1)C1CCCCC1)C(C)(C)C)C(=O)C(=O)NC1CC1,-,-,0.93 µM
CCCC(NC(=O)[C@@H]1C[C@@H](OC(=O)N2CCc3ccccc3C2)CN1C(=O)[C@@H](NC(=O)[C@@H](NC(=O)CCCCC(=O)O)C(C)C)C(C)C)C(=O)C(=O)NC1CC1,-,-,>50 µM
Cc1cc(Cl)ccc1NCc1cc2ccccc2oc1=O,-,Ava5,85 µM
C=CC1C[C@]1(NC(=O)[C@@H]1C[C@@H](Oc2cc(-c3ccccc3)nc3cc(OC)ccc23)CN1C(=O)[C@@H](NC(=O)OC(C)(C)C)C(C)(C)C)C(=O)NS(=O)(=O)c1nc2ccc(OCC)cc2s1,BMS,Huh7,1–10 µM
CC(C)[C@H](NC(=O)NCC(F)(F)F)C(=O)N1CC[C@H]2[C@H]1C1(CCC1)C(=O)N2C(=O)C1CC1,-,-,3.5 µM
OCC1CCC(c2ccc3ncnc(Nc4ccc(C5CCOCC5)cc4)c3c2)O1,2a,JFH-A4,0.75 µM
Cc1nc(N)c2ncn([C@H]3O[C@@H](CO)[C@H](O)[C@@H]3O)c2n1,-,-,0.23 µM
CCCC(NC(=O)[C@@H]1C2CCCC2CN1C(=O)[C@@H](NC(=O)[C@@H](NC(=O)CCCCc1nn[nH]n1)C(C)C)C(C)C)C(=O)C(=O)NC1CC1,-,-,>50 µM
Nc1nc(N2CCOCC2)c2cc(-c3ccc(Cl)cc3)ccc2n1,-,Huh7,0.3–1 µM
Nc1ncnc2c1ncn2[C@@H]1C[C@H](CO)[C@@H](O)[C@]1(O)CO,-,Huh7,18.2 µg/mL
CC(NC(=O)c1ccc2c(c1)nc(-c1ccoc1)n2C1CCCCC1)C(=O)Nc1ccc(-c2ccc(C(=O)O)o2)cc1,-,Huh7,5–50 µM
C=CC1C[C@]1(NC(=O)[C@@H]1C[C@@H](Oc2cc(-c3ccccc3)nc3cc(OC)ccc23)CN1C(=O)[C@@H](NC(=O)OC(C)(C)C)C(C)(C)C)C(=O)NS(=O)(=O)c1cc(Cl)c(Br)s1,BMS,Huh7,0.1–1 µM
Cc1cccc(C)c1NCc1cc2ccccc2oc1=O,-,Ava5,24 µM
O=C1Cn2c(c(C3CCCCC3)c3ccc(C(=O)O)cc32)-c2ncccc2N1,1b,-,1.8 µM
Fc1ccc(-c2ccc3ncnc(NC4CC4)c3c2)cc1,-,Huh7,1–10 µM
Cc1cc(NC(=O)C2(NC(=O)c3ccc4c(c3)nc(-c3ccoc3)n4C3CCCCC3)CCCC2)ccc1/C=C/C(=O)O,-,Huh7,≤5 µM
CCOc1cccc(-c2cnc3nc(N)nc(N4CCOCC4)c3n2)c1,-,Huh7,1–10 µM
C=CC1C[C@]1(NC(=O)[C@@H]1C[C@@H](Oc2cc(-c3ccccc3)nc3cc(OC)ccc23)CN1C(=O)[C@@H](NC(=O)OC(C)(C)C)C(C)(C)C)C(=O)NS(=O)(=O)c1nnc(NC(C)=O)s1,BMS,Huh7,1–10 µM
COC(=O)N[C@@H](C(=O)N[C@@H](C)c1ncc(-c2ccc(-c3ncc(-c4cnc([C@H]5CCCN5C(=O)[C@H](NC(=O)OC)c5ccccc5)[nH]4)cn3)cc2)[nH]1)c1ccccc1,1b,-,0.00001–0.000999 µM
CCOc1nc(N)nc2ncc(-c3ccc(OC)c(F)c3)nc12,-,Huh7,1–10 µM
C=C[C@@H]1C[C@]1(NC(=O)c1ccc2c(c1)nc(-c1ccoc1)n2C1CCCCC1)C(=O)Nc1ccc(/C=C/C(=O)O)cc1,-,Huh7,≤5 µM
CCNC(=O)N[C@H](C(=O)N1CC[C@H]2[C@H]1C1(CCC1)C(=O)N2C(=O)C1CC1)C(C)C,-,-,4.5 µM
CCCCCOc1ccc(N(C(=O)C(C)C)c2nc(-c3cccnc3)cs2)cc1F,-,-,<1 µM
C=C[C@@H]1C[C@]1(NC(=O)C1C[C@@H](Oc2cc(-c3csc(NC4CCCC4)n3)nc3cc(OC)ccc23)CN1C(=O)[C@@H](NC(=O)OC1CCCC1)C1CCCC1)C(=O)O,-,Huh7,<0.5 µM
CCCCCCCCCCCCCCCCCCOCCOP(=O)(O)CO[C@H](COC)Cn1cnc2c(N)ncnc21,WILD TYPE,-,4.41 µM
C=CC1C[C@]1(NC(=O)[C@@H]1C[C@@H](Oc2cc(-c3ccccc3)nc3cc(OC)ccc23)CN1C(=O)[C@@H](NC(=O)OC(C)(C)C)C(C)(C)C)C(=O)NS(=O)(=O)c1cc([N+](=O)[O-])c(Cl)s1,BMS,Huh7,0.1–1 µM
COC(=O)N[C@H](C(=O)N[C@@H](C)c1ncc(-c2ccc(-c3ccc(-c4cnc([C@@H](C)NC(=O)[C@H](NC(=O)OC)c5ccccc5)[nH]4)cc3)nc2)[nH]1)c1ccccc1,1b,-,0.00001–0.000999 µM
CNC(=O)c1c(-c2ccc(F)cc2)oc2cc(N(CCO)S(C)(=O)=O)c(C3CC3)cc12,1b,Huh7,0.009 µM
CC(C)[C@H](NC(=O)N[C@H](C(=O)N1CC[C@H]2[C@H]1C1(CCC1)C(=O)N2C(=O)C1CC1)C(C)C)C(=O)N1CC[C@H]2[C@H]1C1(CCC1)C(=O)N2C(=O)C1CC1,-,-,0.39 µM
Nc1nc(N2CCOCC2)c2nc(-c3ccc(Cl)s3)cnc2n1,-,Huh7,0.3–1 µM
CC(C)[C@H](NC(=O)N[C@H](C(=O)N1CC[C@H]2[C@H]1C1(CCC1)C(=O)N2C(=O)C1CC1)C(C)C)C(=O)OCc1ccccc1,-,-,0.1 µM
CC1(C)CC2=C(C(c3ccc(OCc4ccccc4)c(Cl)c3)N(C(=O)Cc3ccccc3)c3cccc(O)c3N2)S(=O)(=O)C1,1b,-,0.7999 µM
Nc1nc(N2CCOCC2)c2cc(-c3ccc(F)cc3)ccc2n1,-,Huh7,0.3–1 µM
CNOCc1ccc(-c2cnc3nc(N)nc(N4CCOCC4)c3n2)cc1,-,Huh7,1–10 µM
Cc1cc(-c2nnc(N[C@@H]3CCC[C@H](O)C3)o2)nc2c(C(C)(C)C)cc(OCC(F)(F)F)cc12,GT 1b WT,Huh7,0.00032 µM
CCN1CCC(NC(=O)c2ccc3c(c2)nc(-c2ccoc2)n3C2CCCCC2)(C(=O)Nc2ccc(-c3nc(C(N)=O)cs3)cc2)CC1,-,Huh7,≤5 µM
CCCCCOc1ccc(N(C(=O)OC)c2nc(-c3ccc(F)c(F)c3)cs2)cc1C(F)(F)F,-,-,<1 µM
Nc1nc(N2CCOCC2)c2nc(-c3ccn[nH]3)cnc2n1,-,Huh7,1–10 µM
O=c1oc2ccccc2cc1CNc1cccc(O)c1,-,Ava5,50 µM
Cc1nc2c(s1)CCCn1c-2c(C2CCCCC2)c2ccc(C(=O)O)cc21,1b,-,10 µM
CC(C)(C)OC(=O)N1CCC(NC(=O)c2ccc3c(c2)nc(-c2ccoc2)n3C2CCCCC2)(C(=O)Nc2ccc(/C=C/C(=O)O)cc2)CC1,-,Huh7,≤5 µM
O=c1nc(NO)c(F)cn1[C@H]1O[C@@H](CO)C[C@@H]1O,-,Huh7,31.2 µM
COC(=O)N[C@@H](C(=O)N[C@@H](C)c1ncc(-c2cnc(-c3ccc(-c4cnc([C@H]5CCCN5C(=O)[C@H](NC(=O)OC)c5ccccc5)[nH]4)cc3)cn2)[nH]1)c1ccccc1,1b,-,0.00001–0.000999 µM

8 of the rows above, restated:

| structure | strain | cells | value |
|---|---|---|---|
| O=C(O)/C=C/c1ccc(NC(=O)C2(NC(=O)c3ccc4c(c3)nc(-c3ccccn3)n4C3CCCCC3)CCCC2)cc1 | - | Huh7 | ≤5 µM |
| C=CC1C[C@]1(NC(=O)[C@@H]1C[C@@H](Oc2cc(-c3ccccc3)nc3cc(OC)ccc23)CN1C(=O)[C@@H](NC(=O)OC(C)(C)C)C(C)(C)C)C(=O)NS(=O)(=O)c1cc(Cl)c(Br)s1 | BMS | Huh7 | 0.1–1 µM |
| C=C[C@@H]1C[C@]1(NC(=O)c1ccc2c(c1)nc(-c1ccoc1)n2C1CCCCC1)C(=O)Nc1ccc(/C=C/C(=O)O)cc1 | - | Huh7 | ≤5 µM |
| CC(NC(=O)c1ccc2c(c1)nc(-c1ccoc1)n2C1CCCCC1)C(=O)Nc1ccc(-c2ccc(C(=O)O)o2)cc1 | - | Huh7 | 5–50 µM |
| CCCCCOc1ccc(N(C(=O)C(C)C)c2nc(-c3cccnc3)cs2)cc1F | - | - | <1 µM |
| CCC[C@H](NC(=O)[C@@H]1[C@H]2CCCC[C@H]2CN1C(=O)[C@@H](NC(=O)[C@@H](NC(=O)c1cnccn1)C1CCCCC1)C(C)(C)C)C(=O)C(=O)NC1CC1 | - | - | 0.93 µM |
| Cc1nc2c(s1)CCCn1c-2c(C2CCCCC2)c2ccc(C(=O)O)cc21 | 1b | - | 10 µM |
| CC(C)[C@H](NC(=O)NCC(F)(F)F)C(=O)N1CC[C@H]2[C@H]1C1(CCC1)C(=O)N2C(=O)C1CC1 | - | - | 3.5 µM |

ECn is the concentration giving n% inhibition of infection, replication or growth. a–b is a range or a potency band. Blank or dashed fields: not listed here.